One data set relates to U-87 MG cells. Nature of the data set: Cytotoxicity dose response (CellTiter-Glo, 48 h). The settings on record: for IC50: single agent, 48 h. It is filed as cell-based. (In general: Cellular ATP, detected with luciferase, serves as a proxy for viable cell number.)
Data set [1] relates to MDA-MB-468 breast cancer xenograft. In words: In vivo xenograft efficacy study. Details: species or system immune-deficient female nude mice. As to conditions: Vitamin C 500 mg/kg, FAN-NM-CH3 3 mg/kg.
The next data set deals with MDA-MB-436 cells. In words: Cytotoxicity dose response (CellTiter-Glo, 48 h). It counts as cell-based, human. As to conditions: single agent, MDA-MB-436, 48 h.
Another data set concerns MCF 10A (normal cells). Nature of the data set: Cytotoxicity dose response (CellTiter-Glo, 48 h). It counts as cell-based, human. As to conditions: for IC50: single agent, MCF 10A normal cells, 48 h.
Data set [2] concerns MDA-MB-468 cells. In words: Cytotoxicity dose response (CellTiter-Glo, 48 h). It is filed as cell-based, human.
A further data set concerns MDA-MB-231 cells. Nature of the data set: Cytotoxicity dose response (CellTiter-Glo, 48 h). It is filed as cell-based, human. As to conditions: single agent, MDA-MB-231, 48 h.
In the next data set the test system is MCF7 cells. Nature of the data set: Cytotoxicity dose response (CellTiter-Glo, 48 h). It counts as cell-based, human.
For data set [3], the system named is MDA-MB-468 cells. Nature of the data set: Alkaline comet assay (DNA damage). It is filed as cell-based, human. As to conditions: individual maximum safe doses; stated for all four cell lines alike.
For data set [4], the system named is MDA-MB-468 cells. The settings on record: FAN-NM-CH3 at a dose of 5 M (so in the source).
Data set [5] concerns MDA-MB-468 cells. As to conditions: cited from earlier work.

This is an account of results in patent US20260207641A1, “COMBINATION THERAPY FOR CANCER USING ROS-ACTIVATED PRODRUGS AND ROS-AMPLIFYING THERAPEUTICS” (UWM Research Foundation, Inc., priority 2023, published 2026).

A word on the IC50: it is the midpoint of a concentration-inhibition curve.

Where “and” joins values, the source holds several entries; their conditions need not be identical. Equal entries are not always repeated. Where two headings read alike, the source gives them in different places.

Take `Cc1cc(N(CCCl)CCCl)ccc1B(O)O`: the results for the maximum safe dose in the data set on U-87 MG cells and with MCF7 cells (MCF7) were 5 µM and 2 µM, respectively. Further, the IC50 is 24.8 µM in the data set with U-87 MG cells; 24.8 µM in the data set on U-87 MG cells (listed as Prodrug); 3.65 µM with MDA-MB-436 cells; 48 µM in the data set on MCF 10A (normal cells); 48 µM and 48.4 µM with MCF 10A (normal cells) (listed as Prodrug); 3.02 µM in the data set with MDA-MB-468 cells [2] (single agent, MDA-MB-468 cancer cells, 48 h). Further, the IC50 in the data set with MDA-MB-231 cells was 3.45 µM; with MCF7 cells (single agent, MCF7, 48 h), 6.6 µM; in the data set on MDA-MB-468 cells [5] (MDA-MB-468 cell line, earlier reported values), 3.1 µM. Moreover, the “effect on tumor size” value in data set [1] (after 3 weeks of IP treatment, combination with Vitamin C 1 h before, vs vehicle) is listed as “observable inhibitory effects on the tumor size”. The signs of toxicity entry in data set [1] (xenograft mice, IP) is reported as “neither of the groups showed any signs of toxicity”. In addition, the “MSD (Maximum Safe Dose)” value came out at 6 µM with MCF 10A (normal cells) (Normal Cells (MCF 10A), no discernible toxicity) and 1 µM with MDA-MB-468 cells [2] (Cancer Cells (MDA-MB-468), no discernible toxicity). For the same compound, the “observable DNA damage” value in the data set with MDA-MB-468 cells [3] is reported as “did not show any observable DNA damage”. Also, the toxicity result in the data set on MDA-MB-468 cells [4] is listed as “high toxicity”. In addition, the “toxicity relative to melphalan” value with MDA-MB-468 cells [5] (times more toxic than melphalan, MDA-MB-468) is 16. Further, the “potency/toxicity relative to chlorambucil” value with MDA-MB-468 cells [5] (times more toxic/potent than chlorambucil, MDA-MB-468) was 10.
